Anti-infective test results gathered from many reports (values: NIAID ChemDB through PubChem).

Shared fields: tests in culture; organism: Mycobacterium tuberculosis

Percent inhibition refers to the dose given; in toxicity tests it is the harm to the cells.

smiles,tested at,endpoint,changes,strain or isolate,cell line,method,conditions,result
COc1ccc(C(=O)/C=C/c2ccc(F)cc2)c(F)c1,,MIC,,H37Rv,,resazurin,7 d,32 µg/mL
C[C@]1(COc2ccc(N3CCC(Oc4ccc(OC(F)(F)F)cc4)CC3)cc2)Cn2cc([N+](=O)[O-])nc2O1,,MIC,,UT15,,,,0.012 µg/mL
O=C(CSc1nnc(-c2ccccn2)s1)N/N=c1/scc(-c2cccc(Br)c2)n1-c1ccccc1,,MIC,,Clinical isolate 190,,,,>80 µg/mL
Cc1ccc(=O)[nH]n1,,MIC,,,,,,1 µg/mL
CO[C@H]1/C=C/O[C@@]2(C)Oc3c(C)c(O)c4c(O)c(c(/C=N/N5CCN(C/C=C/c6ccccc6)CC5)c(O)c4c3C2=O)NC(=O)/C(C)=C\C=C\[C@H](C)[C@H](O)[C@@H](C)[C@@H](O)[C@@H](C)[C@H](OC(C)=O)[C@@H]1C,,MIC,,H37RV (RIF-S),,,,0.03 µg/mL
Cc1ccc(C(=O)/C=C/c2ccccc2)c(F)c1,,MIC,,H37Rv,,MTT,7 d,16 µg/mL
COC(=O)c1cc2ccccc2nc1C1CCCCC1,,MIC,,H37Rv,,,,>6.25 µg/mL
COC(=O)C(CO)NC(=O)C(CC(C)C)NC(=O)C(CC(C)C)NC(=O)OCc1ccccc1,,MIC,,H37Rv,,BACTEC,,≥12.8 µg/mL
O=C(O)c1cc(C2C3CC4CC(C3)CC2C4)nc2ccccc12,,MIC,,H37Rv,,,,>6.25 µg/mL
CCCCc1[nH]ccc2c(C)c3nc4ccccc4c3cc12,,MIC,,H37Rv,VERO,resazurin,,1.56 µg/mL
CC(=O)NC[C@H]1CN(c2ccc(N3CCN(Cc4ccc([N+](=O)[O-])s4)CC3)c(F)c2)C(=O)O1,,Geometric mean MIC,,16 isolates (MDR),,,,0.117 µg/mL
COC(=O)c1cc(C2CCCC2)c2ccccc2n1,,MIC,,H37Rv,,,,>6.25 µg/mL
CCOC(=O)c1c[nH]c(C(=O)OCC)c1-c1cc2c(-c3ccccc3)nc3ccccc3n2c1,,MIC,,H37Rv,,,,>12.5 µg/mL
CC1COc2c(N3CCN(C)CC3)c(F)cc3c(=O)c(C(=O)O)cn1c23,,MIC90,,82 strains,,,,2 µg/mL
CC[C@H]1OC(=O)[C@H](C)[C@@H](O[C@H]2C[C@@](C)(OC)[C@@H](O)[C@H](C)O2)[C@H](C)[C@@H](O[C@@H]2O[C@H](C)C[C@H](N(C)C)[C@H]2O)[C@](C)(OC)C[C@@H](C)C(=O)[C@H](C)[C@@H](O)[C@]1(C)O,,MIC,,90-0216 (drug-susceptible),,,,5 µg/mL
O=C(CSc1nnc(-c2ccccn2)s1)N/N=c1/scc(-c2ccccc2)n1-c1ccc([N+](=O)[O-])cc1,,MIC,,Clinical isolate 180,,,,20 µg/mL
COC(=O)c1cc2c3c(ccc2[nH]1)N(C(=O)c1cc2c4c(ccc2[nH]1)N(C(=O)c1cc2c5c(ccc2[nH]1)N(C(N)=O)CC5)CC4)CC3,12.5 µg/mL,inhibition,,H37Rv,,BACTEC,,-11%
CO[C@H]1/C=C/O[C@@]2(C)Oc3c(C)c(O)c4c(=O)c(c5oc6cc(N7CCN(C(C)C)CC7)cc(=O)c6nc5c4c3=C2O)NC(=O)/C(C)=C\C=C\[C@H](C)[C@H](O)[C@@H](C)[C@@H](O)[C@@H](C)[C@H](OC(C)=O)[C@@H]1C,,MIC,,2831 (rifampin-sensitive),,,,0.025 µg/mL
CCOC(=O)N1CCN(c2ccc(C3CC(c4ccc([N+](=O)[O-])o4)=NO3)cc2)CC1,,MIC,,CDC1551,,,,0.1 µg/mL
COC(=O)c1cc(C2C3CC4CC(C3)CC2C4)nc2c(C3C4CC5CC(C4)CC3C5)cccc12,,MIC,,H37Rv,,,,>6.25 µg/mL
NCC[C@H](O)C(=O)N[C@@H]1C[C@H](N)[C@@H](O[C@H]2O[C@H](CN)[C@@H](O)[C@H](O)[C@H]2O)[C@H](O)[C@H]1O[C@H]1O[C@H](CO)[C@@H](O)[C@H](N)[C@H]1O,,MIC,,90-0233 (INH SM-RS),,,,0.5 µg/mL
Cl.Cn1c(COc2ccc(/C=N/N=C(\N)N/N=C/c3ccc(OCc4c[n+]5ccccc5n4C)cc3)cc2)c[n+]2ccccc12.[Cl-].[Cl-],12.5 µg/mL,inhibition,,H37Rv,,BACTEC,,0%
NNC(=O)CC(=O)NN,,MIC,,,,,,10 µg/mL
CO[C@H]1/C=C/O[C@@]2(C)Oc3c(C)c(O)c4c(O)c(c5c(c4c3C2=O)NC2(CCN(CC(C)C)CC2)N=5)=NC(=O)/C(C)=C\C=C\[C@H](C)[C@H](O)[C@@H](C)[C@@H](O)[C@@H](C)[C@H](OC(C)=O)[C@@H]1C,,MIC,,2242 (rifampicin-susceptible),,,,0.031 µg/mL
C=C1C2CC3C4N5C[C@@]6(C)CCC[C@@]47[C@@H]([C@@H]2O)C3(C[C@@]5(O)[C@@H]67)[C@H]1O,12.5 µg/mL,inhibition,,H37Rv,,BACTEC,,0%
Cc1ccccc1-c1cs/c(=N/NC(=O)CSc2nnc(-c3ccccn3)s2)n1-c1ccccc1,,MIC,,Clinical isolate 190,,,,>80 µg/mL
CC1(Cl)CC2OC3(Br)C=CC(C)(O)C2(CC1Br)C3(C)C,12.5 µg/mL,inhibition,,H37Rv,,BACTEC,,7%
NNC(=O)c1ccncc1,,MIC,INH RIF STR resistant,9449/2006,,broth dilution,14 d,16 µM
NC[C@H]1O[C@H](O[C@H]2[C@H](O)[C@@H](O[C@H]3O[C@H](CO)[C@@H](O)[C@H](N)[C@H]3O)[C@H](N)C[C@@H]2N)[C@H](O)[C@@H](O)[C@@H]1O,,MIC,,90-0201 (drug-susceptible),,,,2 µg/mL
Cc1ccc(NC(=O)Nc2cccc3ccccc23)cc1Cl,12.5 µg/mL,inhibition,,H37Rv,,BACTEC,,0%
O=C(/C=C/c1ccc(F)cc1Cl)c1ccccc1,,MIC,,H37Rv,,MTT,,32 µg/mL
COC(=O)C1=C(C)N(c2ccc(OC)cc2)C(C)=C(C(=O)OC)C1c1ccc(OC)cc1,,MIC,,H37Rv,,,,>6.25 µg/mL
NNS(=O)(=O)c1ccc(-c2ccc(S(=O)(=O)NN)cc2)cc1,,MIC,,,,,,>40 µg/mL
NC(=O)c1cnccn1,,MIC,,H37Rv,,resazurin,,100 µg/mL
CC(C)N=c1cc2n(-c3ccc(Cl)cc3)c3ccccc3nc-2cc1Nc1ccc(Cl)cc1,,MIC,,90-0216 (drug-susceptible),,,,0.4 µg/mL
COc1ccccc1C1C(C(=O)Nc2ccc(F)cc2)=C(C)NC(C)=C1C(=O)Nc1ccc(F)cc1,,MIC,,H37Rv,,,,>6.25 µg/mL
CC(=O)NC[C@H]1CN(c2ccc(N3CCOCC3)c(F)c2)C(=O)O1,,MIC,,19 strains,,,,>16 µg/mL
N#C[C@]1(O[C@@H]2O[C@H](CO)[C@@H](O)[C@H](O)[C@H]2O)C=CCC1,,MIC,,H37Rv,,BACTEC,,≥12.5 µg/mL
CC1=C(C(=O)Nc2cc(C)ccc2C)C(c2ccc(O)cc2)C(C(=O)Nc2cc(C)ccc2C)=C(C)N1,,MIC,,H37Rv,,,,>6.25 µg/mL
Cc1c(F)c(N2CCNC(C)C2)cc2c1c(=O)c(C(=O)O)cn2C1CC1,,MIC90,,82 strains,,,,2 µg/mL
O=C(/C=C/c1ccc(F)cc1)c1ccc(O)cc1,,MIC,,H37Rv,,MTT,21 d,32 µg/mL
O=C(CSc1nnc(-c2ccccn2)s1)N/N=c1/scc(-c2ccccc2)n1-c1cccc(Cl)c1,,MIC,,Clinical isolate 190,,,,>80 µg/mL
C=C(C)CC[C@H]1CN(c2ccn(N3CCOCC3)c2)C(=O)O1,,MIC50,,ATCC 35837 (ethambutol-resistant),,,,>100 µM
C/C(=N\NC(=O)c1cc(Cl)ccc1Cl)c1ccccc1,,MIC,,,,,,200 µg/mL
Cc1c(N)nc([C@H](CC(N)=O)NC[C@@H](N)C(N)=O)nc1C(=O)N[C@H](C(=O)NC(C)C(O)CC(=O)NC(C(=O)NC(OC1OC(C)C(N)C(O)C1O)C(O)c1nc(-c2nc(C(=O)NCCCCN)cs2)cs1)[C@H](C)O)C(OC1OC(CO)C(O)C(O)C1OC1OC(CO)C(O)C(OC(N)=O)C1O)c1cnc[nH]1.Cl.Cl.Cl.Cl,,MIC,,H37Rv,VERO,,,0.1 µg/mL
O=C1c2ccccc2C(=O)c2cc(C[P+](c3ccccc3)(c3ccccc3)c3ccccc3)ccc21,,MIC,Multidrug-resistant,FJ05120,,resazurin,,1 µg/mL
COc1ccc(C(=O)Cc2nc3nnc(N)n3nc2CC(=O)c2ccc(OC)cc2)cc1,,MIC bound,,H37Rv,,BACTEC,,>12.5 µg/mL
COC(=O)Cc1cc(C2CCCCC2)nc2ccccc12,6.25 µg/mL,inhibition,,H37Rv,,,,4%
Cc1c[nH]c(C(=O)O)c1-c1ccc2c(-c3ccccc3)nc3ccccc3n12,,MIC,,H37Rv,,,,>12.5 µg/mL
O=C(CSc1nnc(-c2ccccn2)s1)N/N=c1/scc(-c2ccccc2)n1-c1ccc(Cl)cc1,,MIC,,Clinical isolate 331,,,,40 µg/mL
COc1ccc(/C=N/NC(=O)c2ccc(OC)cc2)cc1,,MIC,,,,,,200 µg/mL
CC(=O)C1=C(O)C2(C)c3c(O)c(C)c(O)c(C(C)=O)c3OC2CC1=O,,MIC bound,,H37Rv,,BACTEC,,≤12.5 µg/mL
CC1=C(C(=O)Nc2ccccc2F)C(c2cccc(Cl)c2)C(C(=O)Nc2ccccc2F)=C(C)N1,,MIC,,H37Rv,,,,>6.25 µg/mL
CC1(C)CC[C@]2(C(=O)O)CC[C@]3(C)C(=CC[C@@H]4[C@@]5(C)C[C@H](O)[C@H](O)[C@@](C)(C(=O)O)[C@@H]5CC[C@]43C)[C@@H]2C1,12.5 µg/mL,inhibition,,H37Rv,,BACTEC,,34%
NNC(=O)c1ccncc1,,MIC,,H37Rv,,,,0.02 µg/mL
NNC(=O)c1ccncc1,,MIC,inhA mutant isoniazid resistant,HUG.MB.6726,,resazurin / absorbance,,2.2 µg/mL
COc1cc(SSc2cc(OC)cc([N+](=O)[O-])c2N)c(N)c([N+](=O)[O-])c1,6.25 µg/mL,inhibition,,H37Rv,,resazurin,,1%
CCOc1ccc(C(=O)N/N=C/c2ccc([N+](=O)[O-])cc2)cc1,,MIC,,,,,,100 µg/mL
O=C(NCc1ccc(N2CCN(Cc3ccccc3)CC2)cc1)c1ccc([N+](=O)[O-])o1,,MIC,,UT26,,,,0.012 µg/mL
COc1cc2c(cc1OC)-c1cc3ccc(OC)c(OC)c3c[n+]1CC2,,MIC bound,,H37Rv,,BACTEC,,>12.5 µg/mL
CC(=O)Nc1ccc(C(=O)NN)cc1,,MIC,,,,,,100 µg/mL
O=C(O)c1cc(-c2ccncc2)nc2ccccc12,6.25 µg/mL,inhibition,,H37Rv,,resazurin,,-8%
O=C(/C=C/c1ccccc1)c1ccc(F)cc1,,MIC,,H37Rv,,MTT,,32 µg/mL
CO[C@H]1/C=C/O[C@@]2(C)Oc3c(C)c(O)c4c(=O)c(c5oc6cc(N7CCN(CC(C)C)CC7)cc(=O)c6nc5c4c3=C2O)NC(=O)/C(C)=C\C=C\[C@H](C)[C@H](O)[C@@H](C)[C@@H](O)[C@@H](C)[C@H](OC(C)=O)[C@@H]1C,,MIC,,2227 (rifampin-resistant),,,,0.05 µg/mL
O=C(O)c1c(C2CCCCC2)nc2ccccc2c1C1CCCCC1,,MIC,,H37Rv,,,,>6.25 µg/mL
O=C1/C(=C/c2ccc(Cl)cc2)CSC/C1=C/c1ccc(Cl)cc1,12.5 µg/mL,inhibition,,H37Rv,,BACTEC,,43%
O=C(/C=C/c1c(F)cccc1Cl)c1ccccc1,,MIC,,H37Rv,,MTT,,32 µg/mL
NC1=NNC(=O)C1N=Nc1ccc(S(=O)(=O)Nc2nccs2)cc1,12.5 µg/mL,inhibition,,H37Rv,,BACTEC,,14%
C/C(CCC(=O)O)=N/NC(=O)c1ccccc1Cl,,MIC,,,,,,40 µg/mL
O=C(C[n+]1ccccc1)N=N/C(C(=O)Nc1c(Cl)c(O)c2ccccc2c1O)=C1/C(=O)Oc2cc(O)ccc2C1=O.[Cl-],12.5 µg/mL,inhibition,,H37Rv,,BACTEC,,71%
COC(=O)c1ccnc2ccccc12,,MIC,,H37Rv,,,,>6.25 µg/mL
Cc1cc2c(C)c3cc(C)c(N)cc3nc2cc1N,,MIC,,H37Rv,VERO,BACTEC,,3.13 µg/mL
Cc1c[nH]c(C(=O)O)c1-c1cc2c(-c3ccccc3)nc3ccccc3n2c1,,MIC,,H37Rv,,,,>12.5 µg/mL
O=Nc1sc(=S)n(C2CCCCC2)c1O,12.8 µg/mL,inhibition,,H37Rv,,BACTEC,,11%
O=C1CCC(c2ccc(-c3ccccc3)cc2)=NN1,,MIC,,,,,,>10 µg/mL

Neighbouring rows are from separate reports. Blank or dashed fields: not listed here. MIC50, MIC90 and the like: level of inhibition, or share of isolates inhibited. MIC bound comes from a single tested concentration.